Reference: paper PMC5033595, “The Effectiveness of Natural Diarylheptanoids against Trypanosoma cruzi: Cytotoxicity, Ultrastructural Alterations and Molecular Modeling Studies” (PLoS ONE, 2016)

Test system: T. cruzi epimastigotes
Test: Scanning and transmission electron microscopy of treated epimastigotes
Format: cell-based, Trypanosoma cruzi
Settings: treated at IC50 concentration, 24-72 h

O=C(/C=C/c1ccc(O)cc1)CC(=O)/C=C/c1ccc(O)cc1 [BDMC, bisdemethoxycurcumin]
ultrastructural changes of epimastigotes: apparent decrease in cell volume
